The record followed here is patent publication US20090068207A1, “Compositions Containing Beta 2-Glycoprotein I-Derived Peptides for the Prevention and/or Treatment of Vascular Disease” (Vascular Biogenics Ltd., priority 2005, published 2009).

The data set can be described thus: Body weight, plasma cholesterol and triglyceride after nasal administration (LDL-RD mice). It counts as in vivo. The following applies: End, mean ± S.E.

B1: HSP65: recombinant human HSP 65 according to Example 2 and Table 2 (protein, UniProt P10809 27-573, looked up)
60 kDa heat shock protein, …: AKDVKFGADARALMLQGVDLLADAVAVTMGPKGRTVIIEQSWGSPKVTKDGVTVAKSIDLKDKYKNIGAKLVQDVANNTNEEAGDGTTTATVLARSIAKEGFEKISKGANPVEIRRGVMLAVDAVIAELKKQSKPVTTPEEIAQVATISANGDKEIGNIISDAMKKVGRKGVITVKDGKTLNDELEIIEGMKFDRGYISPYFINTSKGQKCEFQDAYVLLSEKKISSIQSIVPALEIANAHRKPLVIIAEDVDGEALSTLVLNRLKVGLQVVAVKAPGFGDNRKNQLKDMAIATGGAVFGEEGLTLNLEDVQPHDLGKVGEVIVTKDDAMLLKGKGDKAQIEKRIQEIIEQLDVTTSEYEKEKLNERLAKLSDGVAVLKVGGTSDVEVNEKKDRVTDALNATRAAVEEGIVLGGGCALLRCIPALDSLTPANEDQKIGIEIIKRTLKIPAMTIAKNAGVEGSLIVEKIMQSSSEVGYDAMAGDFVNMVEKGIIDPTKVVRTALLDAAGVASLLTTAEVVVTEIPKEEKDPGMGAMGGMGGGMGGGMF
Regarding B1, under “intranasal 1 μg/mouse”, the “Triglyceride” value came to 315 ± 46 mg/dL and the “Weight” value amounted to 26.9 ± 0.9 g. Further, where the note is “intranasal 10 μg/mouse”, the “Triglyceride” value is 348 ± 32 mg/dL and the “Weight” value was 28.4 ± 1.0 g.
